Patent US20010014345A1, “MATERIAL, METHOD AND APPARATUS FOR INHIBITING BACTERIAL GROWTH IN AN AQUEOUS MEDIUM” (priority 1995, published 2001)
Several values for one entry are separate records, joined by “and”; a condition that tells them apart may be missing. Equal entries are not always repeated.

Legend:
Pseudomonas aeruginosa [1] = experiment: Biocide efficiency (B.E.) of immobilised biocides in recirculating column test; format: cell-based; settings: column length 10 cm, biocide immobilised on Amberlite XAD-4, 30° C., 13.5 ml/min
Pseudomonas aeruginosa [2] = experiment: Recirculating column test of immobilised biocide (active beads), viable bacterial counts / growth curve; format: cell-based; settings: active beads on Amberlite XAD-4, 10x1 cm column, ~10^4 cfu/ml challenge, FIG. 3

Substance	B.E. (t-24 h) (Pseudomonas aeruginosa [1])	growth of the bacteria versus control beads (Pseudomonas aeruginosa [2])
4,5-dichloro-2-n-octyl-isothiazolin-3-one	0.77 and 0.62	–
5-chloro-2-n-octyl-isothiazolin-3-one	–	capable of significantly limiting the growth of the bacteria
